In ChEMBL document CHEMBL3632587, “Discovery of a Specific Inhibitor of Pyomelanin Synthesis in Legionella pneumophila” (J Med Chem, 2015):

Experiment: Selectivity ratio of IC50 for human PAH to IC50 for Legionella pneumophila PAH

Question: Which Ratio IC50 does the source give for `c1ccc2c(c1)CSc1sccc1C2n1ccnc1` (stereo unspecified) here?
Answer: 200
